# Measured values: article PMC7858072
# For at least one entry, the source does not settle the construct or the ends of the probe.
# System: MBP-FhtR (apo) (Enterococcus faecalis OG1RF)
# Test: EMSA
# Settings: 2.5 pmol protein:0.25 pmol DNA, complete shift, only faster C1 complex; recombinant protein; residues 1-201; protein details: N-terminal MBP (pMAL-c4X); probe letters rebuilt from the primers and the genome
row,Sequence,binding result
1,CCAGCGAAAAACAGTGGATGACGATGTCAAAAAATTTATTCAATTTATGCTACATGGCGTTTTGAAAAGTCACAAATAAAAAATAGAGAAGCCCTGTTGAAAAACAGACTTCTCTATTTTTTTGTGAAATTCACACTTGTATACATAAATAATTATTGATTTATCGATTGATAAGTGATATAGTTTATTTCGAAAAGAAGAAAGAGGTGAACCATTCATGTTTTTAGGATTTAATGAAATGAAGTATTCAAAAGGACGGTACGTCCTTGTAGTCTTAGTAATGGTCTTGATTGCTTGGTTAATTTTTATTTTGTCAGGTTTAGCG (double strand) [PhrtBA P1*],binds
2,CCAGCGAAAAACAGTGGATGACGATGTCAAAAAATTTATTCAATTTATGCTACATGGCGTTTTGAAAAGTCACAAATAAAAAATAGAGAAGCCCTGTTGAAAAACAGACTTCTCTATTTTTTTGTGAAATTCACTTATCAATCGATAAATAATTATTGATATATCTTGTATAAGGTGATATAGTTTATTTCGAAAAGAAGAAAGAGGTGAACCATTCATGTTTTTAGGATTTAATGAAATGAAGTATTCAAAAGGACGGTACGTCCTTGTAGTCTTAGTAATGGTCTTGATTGCTTGGTTAATTTTTATTTTGTCAGGTTTAGCG (double strand) [PhrtBA P2*],binds
